Compound potency records, mixed from different reports. Data source: NIAID ChemDB in PubChem.

Shared fields: growth or infection tests; agent: Mycobacterium smegmatis

MIC50, MIC90 and the like: level of inhibition, or share of isolates inhibited.

CSCCC/C=N/NC(=O)c1cnc2cc(F)ccc2c1NC(CSc1ccccc1)CC(=O)N(C)C ; read-out: MIC ; strain or isolate: ATCC 19420 ; read by: resazurin ; value: >100 µg/mL
NC1CCN(CCCCn2ccc(Nc3cc(C(=O)N4CC[C@@H](O)C4)ccn3)nc2=O)CC1 ; read-out: MIC ; read by: turbidity ; value: 32–128 µg/mL
CCCCCCCOc1cc(-c2ccc(F)cc2)nc2ccccc12 ; read-out: MIC ; strain or isolate: ATCC 607 ; value: 250 µg/mL
COc1c(N2CCC(N)C2)c(F)cc2c(=O)c(C(=O)O)cn(C3CC3)c12 ; read-out: MIC99 ; strain or isolate: D95Y mutant ; value: 2 µg/mL
COc1c(N2CCn3cc(C(=O)O)nc3C2)c(F)cc2c(=O)c(C(=O)O)cn(C3CC3)c12 ; read-out: MIC ; strain or isolate: ATCC 14468 ; read by: agar ; value: 7.08 µM
O=C(O)c1c2n(c3cc(N4CCN(C(=O)C5COc6ccccc6O5)CC4)c([N+](=O)[O-])cc3c1=O)CS2 ; read-out: MIC ; strain or isolate: ATCC 14468 MC2 ; read by: agar ; value: 47.66 µM
O=C(O)c1c2n(c3cc([N+](=O)[O-])c(N4CCC5(CC4)OCCO5)cc3c1=O)CS2 ; read-out: MIC ; strain or isolate: ATCC 14468 ; read by: agar ; value: 59.61 µM
NCCC[C@H](N)CC(=O)N[C@H]1CNC(=O)[C@H]([C@H]2C[C@H](O)NC(N)=N2)NC(=O)/C(=C/NC(N)=O)NC(=O)[C@H](CO)NC(=O)[C@H](CO)NC1=O ; read-out: MIC ; strain or isolate: rabinowitchi 16 ; value: 5 µg/mL
CCCCCCCCCCCCCC#CC(=O)OCC(O)CO ; read-out: MIC99 ; strain or isolate: mc22389 ; value: 19.1 µM
CCCCCCCCO[C@@H]1O[C@H]([C@H](C)O)C(O)C1O ; read-out: MIC ; strain or isolate: mc2155 ; read by: absorbance ; value: 0.86 µM
CCCCCCCCCCCCSCC#CC(=O)O ; read-out: MIC99 ; strain or isolate: mc2651 ; value: 46.3 µM
O=C(O)c1c2n(c3cc([N+](=O)[O-])c(N4CCC(n5c(=O)[nH]c6ccc(Cl)cc65)CC4)cc3c1=O)CS2 ; read-out: MIC ; strain or isolate: ATCC 14468 ; read by: agar ; value: 11.84 µM
CCCCCCOc1cc(-c2cccc(F)c2)nc2ccccc12 ; read-out: MIC ; strain or isolate: ATCC 607 ; value: 125 µg/mL
O=C(O)c1c2n(c3cc(N4CCN(C(=O)C5COc6ccccc6O5)CC4)c(F)cc3c1=O)CS2 ; read-out: MIC ; strain or isolate: ATCC 14468 MC2 ; read by: agar ; value: 50.25 µM
CCCCCCSCCCCCCCCCCC#CC(=O)O ; read-out: MIC99 ; strain or isolate: mc22389 ; value: >200 µM
CCC1CN(c2c(F)cc3c(=O)[nH]c(=O)n(C4CC4)c3c2OC)CCN1 ; read-out: MIC99 ; strain or isolate: A91V mutant ; value: 200 µg/mL
Cc1[nH]c2ccccc2c1C1=C(Br)C(=O)NC1=O ; read-out: MIC ; strain or isolate: SG987 ; value: 25 µg/mL
CCCCCCCCCCCCCCC(=O)NC(C)(CCC(=O)O)CCC(=O)O ; read-out: MIC ; strain or isolate: mc155 ; value: 9 µg/mL
CCCCCCCCCCCCCOc1cc(-c2ccc(F)cc2)nc2ccccc12 ; read-out: MIC ; strain or isolate: ATCC 607 ; value: 250 µg/mL
COc1c(N2CC[C@@H](CN)C2)c(F)cc2c(=O)[nH]c(=O)n(C3CC3)c12 ; read-out: MIC99 ; strain or isolate: A91V mutant ; value: 50 µg/mL
CCCCCCCCCCCCCCCCCC#CCC#CC(=O)O ; read-out: MIC99 ; strain or isolate: mc2155 ; value: >200 µM
CCCCCCCCCCOc1cc(-c2ccccc2F)nc2ccccc12 ; read-out: MIC ; strain or isolate: ATCC 607 ; value: 500 µg/mL
C(=C\c1ccccc1)/CNC(Cn1ccnc1)c1ccccc1 ; read-out: MIC ; strain or isolate: CIP 103599 ; value: >16 µg/mL
O=C(Nc1cccc([N+](=O)[O-])c1)Nc1ccc(Cl)c(C(F)(F)F)c1 ; read-out: MIC90 ; read by: broth dilution / turbidity ; value: 0.5 µg/mL
O=C(NCCNC(=O)c1ccc2c(c1)B(O)OC2)c1ccc2c(c1)B(O)OC2 ; read-out: MIC ; strain or isolate: mc2155 ; read by: visual reading / absorbance ; value: 780 µM
O=C(O)c1c2n(c3cc(N4CCC(O)(c5ccc(Cl)cc5)CC4)c([N+](=O)[O-])cc3c1=O)CS2 ; read-out: MIC ; strain or isolate: ATCC 14468 MC2 ; read by: agar ; value: 6.42 µM
CSCCC/C=N/NC(=O)c1cnc2cccc(C(F)(F)F)c2c1NC(CSc1ccccc1)CC(=O)N(C)C ; read-out: MIC ; strain or isolate: ATCC 19420 ; read by: resazurin ; value: >100 µg/mL
COc1c(N2CCSCC2)c(F)cc2c(=O)c(C(=O)O)cn(C3CC3)c12 ; read-out: MIC ; strain or isolate: ATCC 14468 ; read by: agar ; value: 4.12 µM
CNC(=O)[C@@H](C)[C@H]1C(=O)\C(=C(O)/C=C/C(C)=C/[C@@H](C)[C@@H]2O[C@]3(C)O[C@@H](CC[C@]34CO4)[C@@H]2C)C(=O)N1[C@@H]1CC[C@H](O)[C@H](C)O1 ; read-out: MIC90 ; strain or isolate: SMR5 ; read by: resazurin ; value: 50 µg/mL
COc1ccc(/C=N/NC(=O)c2cnc3cc(F)ccc3c2NC(CSc2ccccc2)CC(=O)N(C)C)c(F)c1 ; read-out: MIC ; strain or isolate: ATCC 19420 ; read by: resazurin ; value: >100 µg/mL
CC(C)CC(C)NCCNC(C)CC(C)C ; read-out: EC50 ; strain or isolate: ATCC 607 ; value: >250 µg/mL
CCCCCCCCCCCCOc1cc(-c2ccccc2F)nc2ccccc12 ; read-out: MIC ; strain or isolate: ATCC 607 ; value: 500 µg/mL
O=C(O)c1c2n(c3cc(N4CCSCC4)c(F)cc3c1=O)CS2 ; read-out: MIC ; strain or isolate: ATCC 14468 MC2 ; read by: agar ; value: 70.94 µM
CC[C@H](C)[C@@H](NC(=O)[C@@H](CCC(=O)O)NC(=O)[C@H](Cc1cnc[nH]1)NC(=O)[C@H](C)NC(=O)[C@H](N)Cc1ccccc1)C(=O)N[C@H]1CCCCNC1=O ; read-out: MIC ; value: >50 µg/mL
Fc1ccc(C(Cn2ccnc2)NCc2cccc3ccccc23)cc1 ; read-out: MIC ; strain or isolate: CIP 103599 ; value: 16 µg/mL
CCCCCCCCC(O)[C@@H]1O[C@H]([C@H](O)C(=O)O)C(O)C1O ; read-out: MIC ; strain or isolate: mc2155 ; read by: absorbance ; value: 0.16 µM
CCc1nc(NCCCc2ccccc2)c2cc(C)sc2n1 ; read-out: EC50 ; strain or isolate: mc2155 ; read by: resazurin ; value: 1.9 µM
COc1c(N2CCC(O)(c3ccc(Cl)cc3)CC2)c(F)cc2c(=O)c(C(=O)O)cn(C3CC3)c12 ; read-out: MIC ; strain or isolate: ATCC 14468 ; read by: agar ; value: 12.84 µM
NCc1ccc(Nc2ccn(CCCCN3CCC(N)CC3)c(=O)n2)nc1 ; read-out: MIC ; read by: turbidity ; value: 8–32 µg/mL
CCCCCCCCCC(CCCCCCCCC)OC(=O)NC(CCC(=O)O)(CCC(=O)O)CCC(=O)O ; read-out: MIC ; strain or isolate: mc155 ; value: 54 µg/mL
CCCCCCCCCCCCCCCC#CC(=O)Oc1nccnc1C(=O)OCCC ; read-out: MIC99 ; strain or isolate: mc2155 ; value: 11.2 µM
CCCCCCCCCOc1cc(-c2ccc(F)cc2)nc2ccccc12 ; read-out: MIC ; strain or isolate: ATCC 607 ; value: 125 µg/mL
CN1CCN(c2cc3c(cc2F)c(=O)c(C(=O)O)c2n3CS2)CC1c1ccccc1 ; read-out: MIC ; strain or isolate: ATCC 14468 MC2 ; read by: agar ; value: 58.76 µM
COc1ccc(CC2C3=C(CCCC3)CCN2c2c(F)cc3c(=O)c(C(=O)O)cn(C4CC4)c3c2OC)cc1 ; read-out: MIC ; strain or isolate: ATCC 14468 ; read by: agar ; value: 2.93 µM
CCCCCCCCCCCCCCCC#CC(=O)OCCO ; read-out: MIC99 ; strain or isolate: mc2651 ; value: 2.3 µM
COc1ccc(/C=N/NC(=O)c2cnc3cccc(C(F)(F)F)c3c2NC(CSc2ccccc2)CC(=O)N(C)C)cc1O ; read-out: MIC ; strain or isolate: ATCC 19420 ; read by: resazurin ; value: >100 µg/mL
O=C1NC(=O)C(c2c(-c3ccccc3)[nH]c3ccccc23)=C1Br ; read-out: MIC ; strain or isolate: SG987 ; value: 18.4 µg/mL
C=C1C2CCC(CO)[C@@]23CC[C@H](C3)C1(C)C ; read-out: MIC ; read by: agar diffusion ; changes: MDR quinolone-resistant ; value: 25 µg/mL
Cc1ccccc1NC(=O)CCCCCCCc1[nH]c2ccccc2c1C1=C(Br)C(=O)NC1=O ; read-out: MIC ; strain or isolate: SG987 ; value: 0.41 µg/mL
NNC(=O)c1ccncc1 ; read-out: MIC ; strain or isolate: MC^2 845 ; value: 60 µg/mL
O=C(O)c1c2n(c3cc(F)c(N4CCN(C(=O)c5ccco5)CC4)cc3c1=O)CS2 ; read-out: MIC ; strain or isolate: ATCC 14468 ; read by: agar ; value: 58.22 µM
O=C(O)c1c2n(c3cc(N4CCN(C(=O)c5ccco5)CC4)c([N+](=O)[O-])cc3c1=O)CS2 ; read-out: MIC ; strain or isolate: ATCC 14468 MC2 ; read by: agar ; value: 0.85 µM
O=C(O)c1c2n(c3cc([N+](=O)[O-])c(N4CCC(N5CCCCC5)CC4)cc3c1=O)CS2 ; read-out: MIC ; strain or isolate: ATCC 14468 ; read by: agar ; value: 112 µM
CCC1CN(c2c(F)cc3c(=O)c(C(=O)O)cn(C4CC4)c3c2OC)CCN1 ; read-out: MIC99 ; strain or isolate: D95Y mutant ; value: 0.5 µg/mL
CC1CN(c2cc3c(cc2F)c(=O)c(C(=O)O)c2n3CS2)CC(C)O1 ; read-out: MIC ; strain or isolate: ATCC 14468 MC2 ; read by: agar ; value: 68.61 µM
Clc1ccc(C(Cn2ccnc2)NCc2ccc(-c3ccccc3)cc2)cc1 ; read-out: MIC ; strain or isolate: CIP 103599 ; value: 16 µg/mL
CN(C)C(=O)CC(CSc1ccccc1)Nc1c(C(=O)N/N=C/c2ccc(Br)s2)cnc2cccc(C(F)(F)F)c12 ; read-out: MIC ; strain or isolate: ATCC 19420 ; read by: resazurin ; value: >100 µg/mL
CC(C)(C)NC(=O)C1c2ccccc2CCN1c1cc2c(=O)c(C(=O)O)c3n(c2cc1[N+](=O)[O-])CS3 ; read-out: MIC ; strain or isolate: ATCC 14468 ; read by: agar ; value: 98.32 µM
Clc1ccc(C(Cn2ccnc2)NC/C=C/c2ccccc2)cc1 ; read-out: MIC ; strain or isolate: CIP 103599 ; value: >16 µg/mL
CCC1CN(c2cc3c(cc2F)c(=O)c(C(=O)O)cn3C2CC2)CCN1 ; read-out: MIC99 ; strain or isolate: G89C mutant ; value: 4 µg/mL
COc1c(N2CCc3ccccc3C2C(=O)NC(C)(C)C)c(F)cc2c(=O)c(C(=O)O)cn(C3CC3)c12 ; read-out: MIC ; strain or isolate: ATCC 14468 ; read by: agar ; value: 49.26 µM
CCCCCCCCCCCCOc1cc(-c2cccc(F)c2)nc2ccccc12 ; read-out: MIC ; strain or isolate: ATCC 607 ; value: 125 µg/mL
CCCCCCCCCCCCCCCC(=O)NC1CNC(=O)C(C2CCN=C(N)N2)NC(=O)/C(=C/NC(N)=O)NC(=O)C(CO)NC(=O)C(CO)NC1=O ; read-out: MIC ; strain or isolate: rabinowitchi 33 ; value: 5 µg/mL
CCCCCCCCOCC(COCCCCCCCC)[C@@H]1O[C@H]([C@H](O)CO)C(O)C1O ; read-out: MIC ; strain or isolate: mc2155 ; read by: absorbance ; value: 1 µM
CCCCC(C)NCCNC(C)CCCC ; read-out: EC50 ; strain or isolate: ATCC 607 ; value: <500 µg/mL
Fc1ccc(C(Cn2ccnc2)NC/C=C/c2ccccc2)cc1 ; read-out: MIC ; strain or isolate: CIP 103599 ; value: >16 µg/mL
CNCCCOCc1ccc(Nc2ccn(CCCCN3CCC(N)CC3)c(=O)n2)nc1 ; read-out: MIC ; read by: turbidity ; value: <8 µg/mL
COc1c(N2CC[C@@H](CN)C2)c(F)cn2c(=O)n(N)c(=O)c(C3CC3)c12 ; read-out: MIC99 ; strain or isolate: A91V mutant ; value: 10 µg/mL
CC(C)NCCN(C)C(C)C ; read-out: EC50 ; strain or isolate: ATCC 607 ; value: >1000 µg/mL
C#CCCCCCCCCCCCCC#CC(=O)O ; read-out: MIC99 ; strain or isolate: mc2651 ; value: 152.6 µM
c1ccc(C(Cn2ccnc2)NCc2cccc3ccccc23)cc1 ; read-out: MIC ; strain or isolate: CIP 103599 ; value: >16 µg/mL
Cc1ccccc1NC(=O)CCCCc1[nH]c2ccccc2c1C1=C(Br)C(=O)NC1=O ; read-out: MIC ; strain or isolate: SG987 ; value: 25 µg/mL
CC(NCCNC(C)C(C)(C)C)C(C)(C)C ; read-out: EC50 ; strain or isolate: ATCC 607 ; value: >250 µg/mL
Cc1c(C2=C(Br)C(=O)NC2=O)c2ccccc2n1C ; read-out: MIC ; strain or isolate: SG987 ; value: 12.5 µg/mL
COC(=O)/C=C/C(=O)c1ccc(C(C)(C)C)cc1 ; read-out: MIC ; value: 8 µg/mL
CCCCCCCCCCCCCCCCNC(=O)NC(CCC(=O)O)(CCC(=O)O)CCC(=O)O ; read-out: MIC ; strain or isolate: mc155 ; value: 18 µg/mL
NC1CCN(CCCCn2ccc(Nc3ccc(CNC(=O)[C@@H](N)CO)cn3)nc2=O)CC1 ; read-out: MIC ; read by: turbidity ; value: 8–32 µg/mL

ECn is the concentration giving n% inhibition of infection, replication or growth. Two numbers with a dash give a range or band. Neighbouring rows are from separate reports.